Laboratory results reported in PubChem BioAssay AID1626 (SRMLSC, 2009).

Test system: M. tuberculosis H37Rv growth inhibition
Experiment: M. tuberculosis H37Rv growth inhibitors, H37Rv strain (AID 1626)
Settings: for IC90: measured here: IC90 against H37Rv

Compound | IC90 [µM] | CC50 (measured here: Vero cell cytotoxicity) [µM]
CCCCCOc1ccc(NP(C)(=O)Oc2ccc(Cl)cc2Cl)cc1 (stereo not drawn) | > 100 | 
O=[N+]([O-])c1cc([N+](=O)[O-])c(Nc2ccccn2)c([N+](=O)[O-])c1 | 4.59 | 20.6
